In PMC4805248:

How the values were obtained:
[1] = target: T1, PgMntR C108E (Porphyromonas gingivalis W50) (UniProt Q7MVL0); assay: EMSA; settings: 800 nM protein, EMSA: 1 nM biotinylated DNA, 700-1000 nM protein, 90 mM Bis-Tris borate pH 6.8 (1 mM TCEP, 5 mM DTT) or 10 mM Tris-Cl pH 7.5 or Tris-acetate pH 6.8, 50 mM KCl, recombinant protein, residues 1-310, protein details: His-tag cleaved, N-terminal GPG left, label: 5' biotin on both primers, probe letters rebuilt from the primers and the genome
T1 sequence (looked up): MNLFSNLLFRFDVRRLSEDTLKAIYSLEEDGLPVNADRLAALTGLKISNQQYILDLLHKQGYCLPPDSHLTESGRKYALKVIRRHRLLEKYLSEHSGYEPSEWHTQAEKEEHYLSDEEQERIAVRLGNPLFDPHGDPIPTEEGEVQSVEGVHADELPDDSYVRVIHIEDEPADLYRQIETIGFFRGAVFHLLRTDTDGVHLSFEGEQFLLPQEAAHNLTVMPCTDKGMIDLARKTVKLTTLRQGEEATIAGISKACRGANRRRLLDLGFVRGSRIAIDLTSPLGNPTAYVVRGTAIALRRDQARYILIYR

[2] = target: T2, PgMntR D19M (Porphyromonas gingivalis W50) (UniProt Q7MVL0); assay: EMSA; settings: 800 nM protein, EMSA: 1 nM biotinylated DNA, 700-1000 nM protein, 90 mM Bis-Tris borate pH 6.8 (1 mM TCEP, 5 mM DTT) or 10 mM Tris-Cl pH 7.5 or Tris-acetate pH 6.8, 50 mM KCl, recombinant protein, residues 1-310, protein details: His-tag cleaved, N-terminal GPG left, label: 5' biotin on both primers, probe letters rebuilt from the primers and the genome
T2 sequence (looked up): T1 sequence (looked up) with D19M, E108C

Measured: binding result

GCTTCTATAACTTCTATTATTACCGAAGTGTTCGGTCTGTTGGCCTGTGGCACAACGTTTTCAGTATGACAAAGGTGCTTATTTTATCGAAGAATCCGTCAAACTGCAGGCTCTCCTGTGCTATTTTACCTGCATTGAGGTATCCGGAGGCGGAGTTGCTTCTACAAGATCGTTTCCACTTTCTTCCCTGACTATTCCGGTCATTGACAGACTGAAAAATACGTACCAAAAAAGTTTTCAACAACGAAGATGAGTTTGGAATGATTCCAAATAAGCACCTGAAAGGAAGACGATTTCGAAGTCAAAAAGGCAAGAAAAGGAAGTTTTTCAGGTAGAAACATGACTTTTGGAAAGAAGATAACGATTTATATACAAATCATTTACG (double strand) [P1 (promoter region upstream of pgmntR/FB2 operon)]
binds: [1]; Mn2+ | [1]; no metal | [2]; Mn2+ | [2]; no metal

Changes are numbered by the printed parent chain. Where a protein sequence is shown, tags need not be part of it.
